{"source": "patent US20060127411A1", "about": "(priority 2002, published 2006)", "test_system": "peripheral blood lymphocytes from patients with severe atopic eczema", "assay": "Spontaneous cytokine secretion, cytometric bead array, patients with atopic eczema", "conditions": "patients with atopic eczema (n=3), 200 μg/10^6 cells, 2 days (FIG. 9)"}
{"sequence": "QELDYLTRH", "values": [{"measurement": "IFNγ synthesis", "value": "in particular also the IFNγ synthesis"}, {"measurement": "Spontaneous cytokine production of all Th populations (Th1 and Th2 cytokines)", "value": "inhibits the increased cytokine production of all Th populations"}]}
